Measured values from several laboratories, pooled; numbers as filed in NIAID ChemDB.

All rows: cytotoxicity tests; cell line: CEM; read-out: CC50

CCn: concentration that lowers growth or viability of the cells by n%.

structure,read by,value
Cc1cn([C@H]2C=C[C@@H](CO)O2)c(=O)[nH]c1=O,,213 µM
Cc1cn([C@@H]2O[C@H](CC3CCCCC3)C3(OS(=O)(=O)C=C3N)[C@H]2O[Si](C)(C)C(C)(C)C)c(=O)[nH]c1=O,trypan blue,7.7 µg/mL
C=CCSSCC=C,,88 µM
O=c1[nH]cccc1O,cell count,>100 µg/mL
COC(=O)[C@@H](NC(=O)[C@@H](NC(=O)CC[C@H](O)[C@H](Cc1ccccc1)NC(=O)[C@H](C)NC(=O)OCc1ccccc1)C(C)C)C(C)C,,>100 µM
CCCC(C)(C)[Si](C)(C)OC[C@H]1O[C@@H](n2cc(C)c(=O)n(CC(=O)O)c2=O)[C@H](O[Si](C)(C)C(C)(C)CCC)[C@@H]1O,,21 µM
Nc1ccn([C@H]2CC[C@@H](CO)O2)c(=O)n1,,>0.05 µM
Cc1ccnc2c1N(CN1CCNCC1)C(=O)c1cccnc1N2C1CC1,XTT,>200 µM
CCOC(=O)CCc1ccccc1O[P@@](=O)(N[C@@H](C)C(=O)OCC)OC[C@H]1O[C@@H](n2cnc3c(N)nc(N)nc32)[C@](C)(O)[C@@H]1O,,>100 µM
O=C(O)/C=C/c1ccc(O)c(O)c1.O=C(O)c1cc(O)c(O)c(O)c1,cell count,>100 µg/mL
CC[C@H](C)[C@H](NC(=O)c1ccccc1SSc1ccccc1C(=O)N[C@H](C(=O)O)[C@@H](C)CC)C(=O)O,,140 µM
Cc1cc(SC2=C(O)C[C@](CCc3ccc(O)cc3)(C(C)C)OC2=O)c(C(C)(C)C)cc1N,,211 µM
CC(C)(C)[Si](C)(C)OC[C@H]1O[C@@H](n2cnc3[nH]c(=O)[nH]c(=O)c32)[C@H](O[Si](C)(C)C(C)(C)C)C12OS(=O)(=O)C=C2N,,9.1 µg/mL
CCCCCCCC/C=C\CCCCCCCC(=O)O[C@@H]1Cc2ccccc2[C@@H]1NC(=O)[C@H](Cc1ccccc1)C[C@H](O)CN1CCN(Cc2cccnc2)C[C@H]1C(=O)NC(C)(C)C,MTT,>100 µM
NNC(=O)c1cc(Br)ccc1NC(=O)C12CC3CC(CC(C3)C1)C2,,15.8 µM
Nc1nc2c(ncn2C2C=C[C@@H](CO)C2)c(=O)[nH]1,,139 µM
COc1c(-c2ccc(O)c(O)c2)oc2c(O)c(O)cc(O)c2c1=O,,78 µM
CC(C)OC(=O)CCc1ccccc1OP(=O)(N[C@@H](C)C(=O)OC(C)C)OC[C@H]1O[C@@H](n2cnc3c(N)nc(N)nc32)[C@](C)(O)[C@@H]1O,,>100 µM
O=c1[nH]cnc2c1ncn2[C@H]1CC[C@@H](CO)O1,,>500 µM
CCOC(=O)CCNC(=O)c1ccccc1SSc1ccccc1C(=O)NCCC(=O)OCC,,40 µM
CC(C)(C)[Si](C)(C)OC[C@H]1O[C@@H](n2ccc(=O)n(CC(=O)O)c2=O)[C@H](O)[C@@H]1O[Si](C)(C)C(C)(C)C,,63 µM
CCOC(=O)[C@H](C)N[P@](=O)(OC[C@H]1O[C@@H](n2cnc3c(N)nc(N)nc32)[C@](C)(O)[C@@H]1O)Oc1ccccc1CCC(=O)OC(C)C,,>100 µM
Cc1cn([C@H]2CC(N=[N+]=[N-])[C@@H](COP(=O)(OCCC#N)OC[C@H]3CC[C@@H](n4cnc5c(=O)[nH]cnc54)O3)O2)c(=O)[nH]c1=O,,56.6 µM
Nc1nc2c(ncn2[C@@H]2OC[C@](CO)(CCP(=O)(O)O)[C@@H]2F)c(=O)[nH]1,MTT,>100 µM
Cc1cn([C@H]2C=C[C@@H](CO)O2)c(=O)[nH]c1=O,,48 µM
COc1cc(NC(=O)C23CC4CC(CC(C4)C2)C3)c(C(=O)NN)cc1OC,,40.5 µM
Cc1cn([C@H]2C[C@H](N=[N+]=[N-])[C@@H](CO)O2)c(=O)[nH]c1=O,,13 µM
Nc1nc(N)c2ncn([C@H]3CO[C@@H](CO)O3)c2n1,,>500 µM
OCc1cccc(-c2cccc(CO)c2O)c1O,trypan blue,150 µM
CC(C)=CCN1Cc2cc(Cl)cc3[nH]c(=S)n(c23)C[C@@H]1C,,28.4 µM
Cc1ccnc2c1NC(=O)c1cccnc1N2C1CC1,XTT,>200 µM
C=C(COCP(=O)(O)O)C(C)n1cnc2c(N)ncnc21,,>100 µM
Cc1cn([C@H]2C[C@H](N=C(N)n3cncn3)[C@@H](CO)O2)c(=O)[nH]c1=O,MTT,16 µg/mL
Cc1ccnc2c1N(CN1CCN(c3ccc(F)cc3)CC1)C(=O)c1cccnc1N2C1CC1,XTT,>200 µM
CC(C)CC(NC(=O)c1ccccc1SSc1ccccc1C(=O)NC(CC(C)C)C(=O)O)C(=O)O,,130 µM
O=C(O)/C=C/c1ccc(O)c(O)c1,cell count,≥100 µg/mL
CNc1ncnc2c1ncn2[C@@H]1O[C@H](CO[Si](C)(C)C(C)(C)C)C2(OS(=O)(=O)C=C2N)[C@H]1O[Si](C)(C)C(C)(C)C,,7.8 µg/mL
CC(C)OC(=O)CCc1ccccc1O[P@@](=O)(N[C@@H](C)C(=O)OC(C)C)OC[C@H]1O[C@@H](n2cnc3c(N)nc(N)nc32)[C@](C)(O)[C@@H]1O,,>100 µM
Nc1ccn([C@@H]2C=C[C@H](CO)O2)c(=O)n1,,20 µM
COc1ccc(N2CCN(CN3C(=O)c4cccnc4N(C4CC4)c4nccc(C)c43)CC2)cc1,XTT,>200 µM
CCN(CC)c1ccc(NC(=O)c2ccccc2SSc2ccccc2C(=O)Nc2ccc(N(CC)CC)cc2)cc1,,20 µM
Cn1cnc2ncn([C@@H]3O[C@H](CO[Si](C)(C)C(C)(C)C)C4(OS(=O)(=O)C=C4N)[C@H]3O[Si](C)(C)C(C)(C)C)c2c1=O,,15 µg/mL
C=C(COCP(=O)(O)O)C(C)n1cc(C)c(=O)[nH]c1=O,,>100 µM
Nc1ccn([C@H]2C=C[C@@H](CO)O2)c(=O)n1,,22 µM
CCNC(=O)c1cc(Cl)ccc1NC(=O)C12CC3CC(CC(C3)C1)C2,,>200 µM
O=C(NN1C(=O)C(Cl)C1c1ccccc1Cl)c1ccccc1O,,>14.8 µM
CCCCCCCCCCCCCCCCCCOC[C@@H](O)COP(=O)(O)CC(=O)O,,68 µM
Oc1ccc2c(c1)OC[C@]1(O)Cc3cc(O)c(O)cc3[C@H]21,,12.1 µM
O=C(O)P(=O)(O)O,,>100 µM
Nc1cc(OCCOCP(=O)(O)O)nc(N)n1,,42 µM
CCCNC(=O)c1cc(Cl)ccc1NC(=O)C12CC3CC(CC(C3)C1)C2,,>200 µM
CC(n1ccc(=O)[nH]c1=O)C1(COCP(=O)(O)O)CC1,,>100 µM
Nc1nc(NC2CC2)c2ncn(C3CC=C[C@H]3CO)c2n1,,>100 µM
Cc1c(N)nc(N)nc1OCCOCP(=O)(O)O,,4.7 µM
CC(n1cnc2c(N)ncnc21)C1(COCP(=O)(O)O)CC1,,98 µM
CC(C)(C)[Si](C)(C)OC[C@H]1O[C@@H](n2cnc3nc[nH]c(=O)c32)[C@H](O[Si](C)(C)C(C)(C)C)C12OS(=O)(=O)C=C2N,,8.3 µg/mL
Cc1cn([C@H]2C[C@H](N=[N+]=[N-])[C@@H](CO)O2)c(=O)[nH]c1=O,,35.6 µM
CC(C)(C)NC(=O)[C@@H]1C[C@@H]2CCCC[C@@H]2CN1C[C@@H](OC(=O)[C@H](Cc1ccccc1)NC(=O)OC(C)(C)C)[C@H](Cc1ccccc1)NC(=O)[C@H](CC(N)=O)NC(=O)c1ccc2ccccc2n1,MTT,>100 µM
Nc1nc(NC2CC2)c2ncn(C=C3CC3CO)c2n1,visual reading,100 µM
O=c1[nH]cnc2c1ncn2[C@H]1CC[C@@H](CO)O1,,>100 µM
Cc1cn([C@@H]2O[C@H](COC(=O)c3ccccc3)[C@@H](O)[C@H]2OC(=O)c2ccccc2)c(=O)n(CC(=O)O)c1=O,,194 µM
Cc1ccnc2c1N(CN1CCN(c3ccc(Cl)cc3)CC1)C(=O)c1cccnc1N2C1CC1,XTT,>1000 µM
Cn1c(=O)c2c(nc3sc4c(n32)C(=O)c2c(O)ccc(O)c2C4=O)n(C)c1=O,,0.2 µM
O=C(NC(C(=O)O)c1ccccc1)c1ccccc1SSc1ccccc1C(=O)NC(C(=O)O)c1ccccc1,,>100 µM
Cc1cn([C@@H]2O[C@H](CO[Si](C)(C)C(C)(C)C)[C@@H](O)[C@H]2O[Si](C)(C)C(C)(C)C)c(=O)n(CC(=O)O)c1=O,,23 µM
Cc1cn(COC(CN)CO[Si](C)(C)C(C)(C)C(C)C)c(=O)[nH]c1=O,,0.05–100 µM
Nc1nc2c(ncn2[C@@H]2CC[C@H](CO)O2)c(=O)[nH]1,,>100 µM
Nc1ncnc2c1ncn2CCOCP(=O)(O)O,MTT,40.5 µM
CC1=NN(C(=O)c2ccc(Cl)cc2)C(=O)/C1=C/c1ccc(O)cc1,,>15 µM
CC(C)(C)NC(=O)[C@@H]1C[C@@H]2CCCC[C@@H]2CN1C[C@@H](OC(=O)CCCCOc1ccc(C[C@H](N)C(=O)O)cc1)[C@H](Cc1ccccc1)NC(=O)[C@H](CC(N)=O)NC(=O)c1ccc2ccccc2n1,MTT,>100 µM
COc1ccc(C2C(Cl)C(=O)N2NC(=O)c2ccccc2O)cc1OC,,>50 µM
Cc1cn([C@@H]2O[C@H](CC3CCCCC3)C3(OS(=O)(=O)C=C3N)[C@H]2OC(=O)c2ccccc2)c(=O)[nH]c1=O,trypan blue,8.8 µg/mL
Cc1cn([C@H]2C[C@H](N=[N+]=[N-])[C@@H](COP(=O)(O)OC[C@H]3CC[C@@H](n4cnc5c(N)ncnc54)O3)O2)c(=O)[nH]c1=O,,128.1 µM
COc1cc2nc(C34CC5CC(CC(C5)C3)C4)oc(=O)c2cc1OC,,65.8 µM
C=CCOC(=O)CCCCC,,240 µM
Nc1nc(NC2CC2)c2ncn(C3C=C[C@@H](CO)C3)c2n1,,135 µM
CC1=NN(C(=O)c2ccc(Cl)cc2)C(=O)/C1=C/c1ccc(Cl)cc1,,>10 µM
COc1ccc(COCC(O)COCc2ccccc2)cc1,,0.05–100 µM
Cc1cn([C@H]2C[C@H](Nc3nc(N)nn3C)[C@@H](CO)O2)c(=O)[nH]c1=O,MTT,>100 µg/mL
C=CCOC(C)=O,,>1000 µM
Cc1cn([C@H]2C[C@H](N=[N+]=[N-])[C@@H](CO)O2)c(=O)[nH]c1=O,,80 µM
Nc1ncnc2c1ncn2[C@@H]1C[C@H](O)[C@@H](O)[C@H]1O,,500 µg/mL
CC1COCCOC(=O)c2cccc(n2)C(=O)OCCOCC(C)O1,,0.8 µM
CCCOC(=O)c1cc(O)c(O)c(O)c1,cell count,65 µg/mL
CC(C)(C)NC(=O)[C@@H]1C[C@@H]2CCCC[C@@H]2CN1C[C@@H](OC(=O)COc1ccc(C[C@H](N)C(=O)O)cc1)[C@H](Cc1ccccc1)NC(=O)[C@H](CC(N)=O)NC(=O)c1ccc2ccccc2n1,MTT,>100 µM
Nc1nc(=O)n([C@@H]2CC[C@H](CO)O2)cc1F,,67 µM
S=c1[nH]c2cc(Cl)c(Cl)cc2[nH]1,,>100 µM
Cc1cn([C@H]2C[C@H](N=C(NC#N)Oc3ccccc3)[C@@H](CO)O2)c(=O)[nH]c1=O,MTT,>100 µg/mL
COc1ncnc2c1ncn2[C@@H]1O[C@H](CO[Si](C)(C)C(C)(C)C)C2(OS(=O)(=O)C=C2N)[C@H]1O[Si](C)(C)C(C)(C)C,,9.9 µg/mL
O=C(OCC1OC(Sc2nc3cc(Cl)c(Cl)cc3[nH]2)C(OC(=O)c2ccccc2)C1OC(=O)c1ccccc1)c1ccccc1,,>100 µM
COc1cc(O)c2c(c1O)C(=O)c1cc(C)ncc1C2=O,,3.1 µM

A second listing of 10 rows from above:

COc1c(-c2ccc(O)c(O)c2)oc2c(O)c(O)cc(O)c2c1=O ; value: 78 µM
Nc1ccn([C@H]2CC[C@@H](CO)O2)c(=O)n1 ; value: >0.05 µM
CC(C)CC(NC(=O)c1ccccc1SSc1ccccc1C(=O)NC(CC(C)C)C(=O)O)C(=O)O ; value: 130 µM
CCOC(=O)[C@H](C)N[P@](=O)(OC[C@H]1O[C@@H](n2cnc3c(N)nc(N)nc32)[C@](C)(O)[C@@H]1O)Oc1ccccc1CCC(=O)OC(C)C ; value: >100 µM
CC1=NN(C(=O)c2ccc(Cl)cc2)C(=O)/C1=C/c1ccc(O)cc1 ; value: >15 µM
Cc1cn(COC(CN)CO[Si](C)(C)C(C)(C)C(C)C)c(=O)[nH]c1=O ; value: 0.05–100 µM
Cc1ccnc2c1N(CN1CCN(c3ccc(Cl)cc3)CC1)C(=O)c1cccnc1N2C1CC1 ; read by: XTT ; value: >1000 µM
CCOC(=O)CCNC(=O)c1ccccc1SSc1ccccc1C(=O)NCCC(=O)OCC ; value: 40 µM
COc1cc(NC(=O)C23CC4CC(CC(C4)C2)C3)c(C(=O)NN)cc1OC ; value: 40.5 µM
C=CCOC(=O)CCCCC ; value: 240 µM

Conditions beyond the fields shown may differ between rows. Blank or dashed fields: not listed here. a–b is a range or a potency band.